# According to paper PMC5404198:
# Test system: Nc1ncnc2c1ncn2[C@@H]1O[C@H](COP(=O)(O)OP(=O)(O)OP(=O)(O)O)[C@@H](O)[C@H]1O
# Assay: purified protein
# Details: ATPase activity; steady-state hyperbolic kinetics; pH and temperature of the kinetic assay not given
substance,measurement,value
LotP (CLIBASIA_03135; His6X-LotP) (Candidatus Liberibacter asiaticus str. psy62),Km,133.98 µM
